Results as given in patent publication US20140228279A1, “CATIONIC PEPTIDOPOLYSACCHARIDES WITH EXCELLENT BROAD- SPECTRUM ANTIMICROBIAL ACTIVITIES AND HIGH SELECTIVITY” (priority 2011, published 2014).

Tested on: human red blood cells
Test: Hemolysis assay
Type: cell-based
Conditions: E. coli over human red blood cells
Experimental: Fresh human blood (5 ml) was collected from a healthy donor. Erythrocytes were separated by centrifugation at 1000 rpm for 10 min, washed three times with Tris buffer (10 mM Tris, 150 mM NaCl, pH 7.2) and diluted to final concentration (5%, v/v). 50 μl of antimicrobial solution at different concentrations mixed with 50 μl erythrocytes stock were added to a 96-well microplate and incubated for 1 h at 37° C. with 150 rpm shaking. The microplate were centrifuged at 1,000 rpm for 10 min. 80 μl aliquots of the supernatant were then transferred to a new 96-well microplate and diluted with another 80 μl of Tris buffer. Hemolysis was measured as the absorbance at 540 nm with a microplate reader (BIO-RAD, US). Complete hemolysis was determined in Tris buffer plus 0.1% Triton x-100 as positive control, while Tris buffer was used as negative control. The percentage of hemolysis (H) was calculated using the following equation: Hemolysis=[(Op−Ob)/(Ot−Ob)]×100%, where Op is the density for a given antimicrobial agent concentration, Ob is the density for the buffer, and Ot is the density for the Triton x-100 positive control.

Row | Substance | Selectivity: HC50/MIC(E. coli)
1 | chitosan-graft-polylysine [CS-g-K3-HMW] | >313
2 | chitosan-graft-polylysine [CS-g-K25] | >5000
3 | chitosan-graft-polylysine [CS-g-K1] | >625
4 | chitosan-graft-polylysine [CS-g-K3] | >2500
5 | chitosan-graft-polylysine [CS-g-K9] | >5000

Tested on: human red blood cells
Test: not given
Conditions: comparator agents (#3A-#6E), previously reported; cited from earlier work

Row | Substance | Selectivity: HC50/MIC(E. coli)
6 | Magainin-2 | >2
